Source: paper PMC8348142, “Antimicrobial Peptide Modifications against Clinically Isolated Antibiotic-Resistant Salmonella” (Molecules, 2021)
“And” between values parts separate entries of the source, which are not always exact repeats. Equal values may be shown once. Ends that are not written are not given here.

Tested on: Salmonella versus sRBCs
Assay: Selectivity index (HC50/GMMIC)
Details: HC50 (sRBCs) / GMMIC (12 Salmonella isolates)

In the case of FFFIRRIARLLRRIF-NH2 [2F-Kn2-5R-NH2], the “SI (selectivity index)” value is reported as 1 and 0.99.
